Compound potency records, mixed from different reports. Data source: NIAID ChemDB in PubChem.

All rows: tests in culture; species: Mycobacterium tuberculosis

Blank or dashed fields: not listed here. A number after MIC or MFC names an inhibition level or a share of isolates. Percent inhibition refers to the dose given; in toxicity tests it is the harm to the cells. MIC bound comes from a single tested concentration. Lines come from different laboratories, so protocols vary.

compound | changes | dose | read by | strain or isolate | endpoint | value
CN1N=C(c2ccncc2)OC1c1ccc(Cl)c(Cl)c1 | - | - | - | 6 PI | MIC | >20 µg/mL
O=C(N/N=C/c1ccc(Cl)cc1)c1ccccc1 | - | - | - | - | MIC | 10 µg/mL
CCOC(=O)C(NC(=O)CC)(N1CCN(c2cc3c(cc2F)c(=O)c(C(=O)O)cn3C2CC2)CC1)C(F)(F)F | - | 6.25 µg/mL | resazurin | H37Rv | inhibition | 100%
Cc1cc2c(cc1C)[n+]([O-])c(NCCCN(C)C)c(C#N)[n+]2[O-] | - | 6.25 µg/mL | - | H37Rv | inhibition | 81%
COc1ccc(N2C(=Nc3ccccc3)SC(=N\S(=O)(=O)c3ccccc3)/C2=N\S(=O)(=O)c2ccccc2)cc1 | - | 6.25 µg/mL | resazurin | H37Rv | inhibition | 6%
CC(C)OC(=O)Nc1c(C#N)[n+]([O-])c2ccccc2[n+]1[O-] | - | - | - | H37Rv | MIC | <12.5 µg/mL
N[C@@H](Cc1ccccc1)C(=O)N[C@@H](CB(O)O)Cc1ccccc1 | - | - | - | H37Rv | MIC | ≤5 µg/mL
Cc1c(N2CCC3(CC2)OCCO3)c([N+](=O)[O-])cc2c(=O)c(C(=O)O)cn(-c3ccc(F)cc3F)c12 | - | - | - | H37Rv | MIC | 3.11 µM
COc1ccc(C2OC(c3ccncc3)=NN2C)c(OC)c1 | - | - | - | 16PI | MIC | >20 µg/mL
O=C1NC(=NCc2ccc(F)cc2)N/C1=C\c1ccccc1Cl | - | 12.5 µg/mL | - | H37Rv | inhibition | 10%
COc1c(N2CCNC(C)C2)c(F)cc2c(=O)c(C(=O)O)cn(C3CC3)c12 | - | - | - | 27 strains (levofloxacin-susceptible) | MIC90 | 0.2 µg/mL
CN1N=C(c2ccncc2)OC1c1ccccc1 | - | - | - | 6 PI | MIC | >20 µg/mL
Cc1nc(N)nc2c1ccn2[C@@H]1O[C@H](CO)C(O)C1O | - | - | MTT | My 331/88 | MIC | >250 µM
COc1ccc(-c2cc(-c3ccccc3)nc3c2CC(=O)Nc2ccccc2-3)cc1OC | - | 6.25 µg/mL | resazurin | H37Rv | inhibition | 39%
c1ccc(-c2nnc(-c3ccccc3)s2)cc1 | - | - | - | - | MIC | >200 µg/mL
Cc1nc(-c2cc3ccccc3o2)c2ccn([C@@H]3O[C@H](CO)C(O)C3O)c2n1 | - | - | MTT | My 331/88 | MIC | >250 µM
COC(=O)Nc1c(C#N)[n+]([O-])c2ccccc2[n+]1[O-] | - | 6.25 µg/mL | - | H37Rv | inhibition | 98%
OC[C@H]1O[C@@H](n2ccc3c(-c4cccc5c4oc4ccccc45)nc(F)nc32)C(O)C1O | - | - | MTT | My 331/88 | MIC | 32 µM
O=C1Nc2ccc([N+](=O)[O-])cc2[C@]12N1CSC[C@H]1[C@H](c1ccc(F)cc1)[C@]21Cc2ccccc2C1=O | - | - | agar | H37Rv | MIC99 | 3.1 µM
CCOc1ccc(C(=O)N/N=C/C=C/c2ccccc2)cc1 | - | - | - | - | MIC | <40 µg/mL
C[C@H]1COc2c(N3CCC(O)(c4ccc(Cl)cc4)CC3)c(F)c([N+](=O)[O-])c3c(=O)c(C(=O)O)cn1c23 | - | - | agar | - | MIC99 | 1.51 µM
O=C1NC(=Nc2ccc(Cl)cc2Cl)N/C1=C\c1c(Cl)cccc1Cl | - | 12.5 µg/mL | - | H37Rv | inhibition | 4%
O=C(O)c1nn(Cc2ccc(Br)cc2Br)c2ccccc12 | - | 12.5 µg/mL | BACTEC | H37Rv | inhibition | 98%
OC[C@H]1O[C@@H](n2ccc3c(-c4ccsc4)nc(Cl)nc32)C(O)C1O | - | - | MTT | My 331/88 | MIC | 125 µM
NNC(=O)c1ccccc1Cl | - | - | - | - | MIC | 40 µg/mL
CC(C)N=c1cc2n(-c3ccc(Cl)cc3)c3ccccc3nc-2cc1Nc1ccc(Cl)cc1 | - | - | broth dilution / resazurin | MDR2 | MIC | 8 µg/mL
CC1COc2c(N3CCN(C(=O)c4ccco4)CC3)c(F)c([N+](=O)[O-])c3c(=O)c(C(=O)O)cn1c23 | - | - | agar | MDR-TB | MIC99 | 1.6 µM
O=C1CCC(c2ccccc2)=NN1 | - | - | - | - | MIC | >200 µg/mL
COc1ccc(CC2C3=C(CCCC3)CCN2c2c([N+](=O)[O-])cc3c(=O)c(C(=O)O)cn(C4CC4)c3c2C)cc1 | - | - | - | H37Rv | MIC | 2.96 µM
O=C1c2ccccc2-c2ccc(-n3c(=O)c4ccccc4c4ccccc4c3=O)cc21 | - | - | BACTEC | H37Rv | MIC bound | >12.5 µg/mL
Cc1c(N2CCC(O)(c3ccc(Cl)cc3)CC2)c([N+](=O)[O-])cc2c(=O)c(C(=O)O)cn(-c3ccc(F)cc3F)c12 | - | - | - | H37Rv | MIC | >21.93 µM
C[C@@H](B1OC2CC3CC(C3(C)C)[C@@]2(C)O1)[C@@H](Cc1ccccc1)NC(=O)C(N)Cc1ccccc1 | - | - | agar | H37Rv | MIC | ≤50 µg/mL
Cc1ccc2c(c1)c(=O)c1c(NCCN(C)C)ccc3nnn2c31 | - | - | BACTEC | H37Rv | MIC | 12.5 µg/mL
C[C@H]1COc2c(N3CCC(n4c(=O)[nH]c5cc(Cl)ccc54)CC3)c(F)c([N+](=O)[O-])c3c(=O)c(C(=O)O)cn1c23 | - | - | agar | MDR-TB | MIC99 | 0.34 µM
COc1ccc(C2OC(c3ccncc3)=NN2C)cc1OC | - | - | - | 16PI | MIC | >20 µg/mL
CC[C@@H](CO)NCCN[C@@H](CC)CO | Extensively drug-resistant | - | agar | H37Rv | MIC | 30.37 µM
CC(=O)C(N=Nc1cccc2c1C(=O)c1ccccc1C2=O)C(=O)Nc1ccc(C)cc1C | - | - | BACTEC | H37Rv | MIC bound | >12.5 µg/mL
O=C1Nc2ccccc2[C@]12N1CSC[C@H]1[C@H](c1ccc(Br)cc1)[C@]21Cc2ccccc2C1=O | - | - | agar | H37Rv | MIC99 | 24.2 µM
CO[C@H]1/C=C/O[C@@]2(C)Oc3c(C)c(O)c4c(O)c(c5c(c4c3C2=O)NC2(CCNCC2)N=5)=NC(=O)/C(C)=C\C=C\[C@H](C)[C@H](O)[C@@H](C)[C@@H](O)[C@@H](C)[C@H](OC(C)=O)[C@@H]1C | - | - | - | H37Rv | MIC | 0.004 µg/mL
COc1ccc([C@H]2[C@@H]3CSCN3[C@@]3(C(=O)Nc4ccc([N+](=O)[O-])cc43)[C@@]23Cc2ccccc2C3=O)cc1 | - | - | agar | H37Rv | MIC99 | 24.3 µM
C[C@H]1COc2c(N3CCN(C)CC3)c(F)cc3c(=O)c(C(=O)O)cn1c23 | - | - | - | 27 strains (levofloxacin-susceptible) | MIC90 | 0.78 µg/mL
C[C@H]1COc2c(N3CCN(C)C(c4ccccc4)C3)c(F)cc3c(=O)c(C(=O)O)cn1c23 | - | - | agar | - | MIC99 | 14.29 µM
CCCCCCCOC(=O)n1[nH]c(=O)c2ccccc2c1=O | - | - | - | - | MIC | >200 µg/mL
O=C1NC(=NCc2ccc(Cl)cc2)N/C1=C\c1c(Cl)cccc1Cl | - | - | - | H37Rv | MIC | >12.5 µg/mL
Cc1ccc([C@H]2[C@@H]3CSCN3[C@@]3(C(=O)Nc4ccc(Cl)cc43)[C@@]23Cc2ccccc2C3=O)cc1 | - | - | agar | H37Rv | MIC99 | 51.3 µM
N#Cc1c(N)[n+]([O-])c2ccc(C(F)(F)F)cc2[n+]1[O-] | - | - | - | H37Rv | MIC | <12.5 µg/mL
CC(=O)NNC(=O)c1cccnc1 | - | - | BACTEC | H37Rv | MIC bound | >12.5 µg/mL
COc1cc2c(cc1OC)CN(c1c(F)c([N+](=O)[O-])c3c(=O)c(C(=O)O)cn4c3c1OCC4C)CC2 | - | - | agar | MDR-TB | MIC99 | 3.12 µM
COC(=O)c1nnc(C(=O)OC)c2c1[nH]c1ccccc12 | - | - | BACTEC | H37Rv | MIC bound | >12.5 µg/mL
OC[C@H]1O[C@@H](n2ccc3c(-c4cccs4)nc(F)nc32)C(O)C1O | - | - | MTT | My 331/88 | MIC | >250 µM
CC1(C)C2CC3OB(C[C@@H](CCc4ccccc4)NC(=O)[C@@H](N)CCCCN)O[C@]3(C)C1C2 | - | - | - | H37Rv | MIC | ≤500 µg/mL
Nc1nc2c(ccc3ccccc32)[nH]1 | - | 6.25 µg/mL | resazurin | H37Rv | inhibition | 39%
O=C1NC(Nc2ccc(Cl)cc2)=N/C1=C\c1c(Cl)cccc1Cl | - | - | - | H37Rv | MIC | >12.5 µg/mL
CCCSC(=S)Nc1nc2ccc(C)cc2s1 | - | 128 µg/mL | BACTEC | H37Rv | inhibition | 99%
CC1COc2c(N3CCN(C)C(c4ccccc4)C3)c(F)c([N+](=O)[O-])c3c(=O)c(C(=O)O)cn1c23 | - | - | agar | MDR-TB | MIC99 | 3.23 µM
CC(C)N1C(=O)N(Cl)C2C1N(Cl)C(=O)N2Cl | - | - | BACTEC | H37Rv | MIC bound | >6.25 µg/mL
CN1N=C(c2ccncc2)OC1c1cccc(F)c1 | - | - | - | 16PI | MIC | >20 µg/mL
COc1cc2c(cc1OC)C(O)C(O)(CO)C(C(=O)O)C2c1cc(OC)c(OC)c(OC)c1 | - | - | BACTEC | H37Rv | MIC bound | >12.8 µg/mL
C[C@H]1COc2c(N3CCN(C)CC3)c(F)cc3c(=O)c(C(=O)O)cn1c23 | - | - | - | 001-005 (DRUG-SUS) | MIC | 0.5 µg/mL
Cc1c(N2C[C@@H](N)C3(CC3)C2)c(F)c(N)c2c(=O)c(C(=O)O)cn(C3CC3)c12 | - | - | - | 23 strains (rifampin- isoniazid-susceptible) | MIC50 | 0.78 µg/mL
CN(C)CCCNC(=O)Nc1c(C#N)[n+]([O-])c2cc(F)ccc2[n+]1[O-] | - | - | - | H37Rv | MIC | >12.5 µg/mL
CN1N=C(c2ccncc2)OC1c1ccc(F)cc1 | - | - | - | 16PI | MIC | >20 µg/mL
N#Cc1c(N)[n+]([O-])c2cc(F)c(Cl)cc2[n+]1[O-] | - | 6.25 µg/mL | - | H37Rv | inhibition | 99%
O=C(O)c1cnc(Cl)cn1 | - | - | - | ATCC 27294 | MIC | 128 µg/mL
CO[C@H]1/C=C/O[C@@]2(C)Oc3c(C)c(O)c4c(O)c(c5c(c4c3C2=O)NC2(CCN(C)CC2)N=5)=NC(=O)/C(C)=C\C=C\[C@H](C)[C@H](O)[C@@H](C)[C@@H](O)[C@@H](C)[C@H](OC(C)=O)[C@@H]1C | - | - | - | H37Rv | MIC | 0.001 µg/mL
OC[C@H]1O[C@@H](n2ccc3c(-c4ccccc4)nc(Cl)nc32)C(O)C1O | - | - | MTT | My 331/88 | MIC | 250 µM
CC1CN(c2c(F)cc3c(=O)c(C(=O)O)cn4c3c2OC[C@@H]4C)CC(C)O1 | - | - | agar | - | MIC99 | 4.14 µM
CN1N=C(c2ccncc2)OC1c1ccc(Cl)cc1Cl | - | - | - | H37Rv | MIC | >5 µg/mL
Cc1c(N2CCN(C)C(c3ccccc3)C2)c([N+](=O)[O-])cc2c(=O)c(C(=O)O)cn(C3CC3)c12 | - | - | - | H37Rv | MIC | 0.84 µM
C=CCN(CC=C)CC(=O)Nn1c(C)ccc1C | - | 12.5 µg/mL | BACTEC | H37Rv | inhibition | 12%
COc1ccc(/C=N/NC(=O)c2ccc(OC)cc2)cc1 | - | - | - | - | MIC | 200 µg/mL
CN(C)C1C(=O)C(C(=O)NP(=O)(NCCCO)N(CCCl)CCCl)=C(O)C2(O)C(=O)C3=C(O)c4c(O)cccc4C(C)(O)C3CC12 | - | 12.5 µg/mL | BACTEC | H37Rv | inhibition | 98%
CC1COc2c(N3CCN(C(c4ccccc4)c4ccc(Cl)cc4)CC3)c(F)c([N+](=O)[O-])c3c(=O)c(C(=O)O)cn1c23 | - | - | agar | MDR-TB | MIC | 2.63 µM
O=C1N[C@@H]2C(=C[C@H](O)[C@@H](O)[C@H]2O)c2cc3c(cc21)OCO3 | - | - | BACTEC | H37Rv | MIC | ≥12.5 µg/mL
CCC(CC)c1nc2c([nH]1)C1=NC(=O)/C(C)=C\C=C\[C@H](C)[C@H](O)[C@@H](C)[C@@H](O)[C@@H](C)[C@H](OC(C)=O)[C@H](C)[C@@H](OC)/C=C/O[C@@]3(C)Oc4c(C)c(O)c(c-2c4C3=O)C1=O | - | - | - | H37Rv | MIC | 0.002 µg/mL
Brc1ccc(-c2cc(-c3ccc4c(c3)OCO4)c(-c3cccs3)n2Cc2ccccc2)cc1 | - | 6.25 µg/mL | BACTEC | H37Rv | inhibition | 0%
O=C(NNS(=O)(=O)c1ccccc1)c1ccccc1 | - | - | - | - | MIC | >200 µg/mL
O=C1CN=C(c2ccccn2)c2cc(Cl)ccc2N1CCO | - | - | BACTEC | H37Rv | MIC bound | >12.5 µg/mL
O=c1ccc(=O)[nH][nH]1 | - | - | - | - | MIC | >200 µg/mL
Cc1ccc(S(=O)(=O)Oc2ccc3oc4c(CO)ccc(NCCN(C)C)c4c(=O)c3c2)cc1 | - | - | - | EMB-R | MIC | 12.5 µg/mL
CC1(C)C2CC3OB(C[C@@H](Cc4ccccc4)NC(=O)[C@@H](N)Cc4c[nH]c5ccccc45)O[C@]3(C)C1C2 | - | - | agar | H37Rv | MIC | ≤500 µg/mL
COc1ccc2nc(N/N=C/c3ccccn3)cc(C)c2c1 | - | - | BACTEC | H37Rv | MIC bound | ≤12.5 µg/mL
NC[C@H]1O[C@H](O[C@H]2[C@H](O)[C@@H](O[C@H]3O[C@H](CO)[C@@H](O)[C@H](N)[C@H]3O)[C@H](N)C[C@@H]2N)[C@H](O)[C@@H](O)[C@@H]1O | - | - | - | TN758 (P) | MIC | 4 µg/mL

5 of the rows above, restated:

{"compound": "Cc1c(N2CCN(C)C(c3ccccc3)C2)c([N+](=O)[O-])cc2c(=O)c(C(=O)O)cn(C3CC3)c12", "strain or isolate": "H37Rv", "endpoint": "MIC", "value": "0.84 µM"}
{"compound": "CCCSC(=S)Nc1nc2ccc(C)cc2s1", "dose": "128 µg/mL", "read by": "BACTEC", "strain or isolate": "H37Rv", "endpoint": "inhibition", "value": "99%"}
{"compound": "O=C1CCC(c2ccccc2)=NN1", "endpoint": "MIC", "value": ">200 µg/mL"}
{"compound": "COC(=O)c1nnc(C(=O)OC)c2c1[nH]c1ccccc12", "read by": "BACTEC", "strain or isolate": "H37Rv", "endpoint": "MIC bound", "value": ">12.5 µg/mL"}
{"compound": "CC(C)OC(=O)Nc1c(C#N)[n+]([O-])c2ccccc2[n+]1[O-]", "strain or isolate": "H37Rv", "endpoint": "MIC", "value": "<12.5 µg/mL"}